Consider two compounds from publication PMC6709497, “Identification of Novel Trypanosoma cruzi Proteasome Inhibitors Using a Luminescence-Based High-Throughput Screening Assay” (Antimicrobial Agents and Chemotherapy, 2019).

For this series, the system named is T. cruzi strain Silvio X10/7 epimastigotes. The experiment in a line: Cellular T. cruzi epimastigote viability assay. The class given is cell-based, Trypanosoma cruzi. Particulars: cell-free pIC50 compared with cellular pEC50. On the procedure: For the cell viability readout, BacTiter-Glo microbial cell viability reagent (Promega; catalogue no. G8230) was added to each well (25 μl) and incubated at room temperature for 5 min. The plates were then sealed with clear film, and the luminescence was read using a Victor 3 (PerkinElmer, USA) or Pherastar FS (BMG Labtech, Germany) plate reader with a 0.5-s per well reading time. Data for epoxomicin were obtained from three independent replicates (n = 3), and data for all the remaining compounds were acquired from four independent replicates (n = 4). RLU data were normalized to percent inhibition values relative to 100% effect (Nifurtimox) and 0% effect (DMSO; 1% [vol/vol] final assay concentration) control populations. Normalized data for each independent replicate were fitted separately to a four-parameter logistic regression model, and pEC50 {i.e., −log(EC50[M])} values were calculated using IBDS ActivityBase 8.1.2.12 software, after which a mean pEC50 value for each compound was calculated.

Turning to oprozomib, the “potency in cell-free chymotrypsin-like activity assay versus cellular assay” value is “equipotency”. Under `CC[C@H](C)[C@H](NC(=O)[C@H]([C@@H](C)CC)N(C)C(C)=O)C(=O)N[C@H](C(=O)N[C@@H](CC(C)C)C(=O)[C@@]1(C)CO1)[C@@H](C)O` [Epoxomicin, epoxomicin] stands “equipotency”.
